We go through seven substances from patent US20070118934A1.

The target in the assay is protective antigen (PA) of Bacillus anthracis (Bacillus anthracis) (UniProt P13423). The experiment in a line: cell-based or functional assay.
In the case of “CMG2-IgG V1 co-expressed with CMG2-kappa (V1/K) (from UniProt P58335 34-218; P58335 34-232) (Fc fusion)”, the molar ratio of antitoxin to PA at the IC50, assay Jul. 27, 2005 (molar ratio antitoxin:PA) stood at 0.25. Turning to “CMG2-IgG V3 co-expressed with CMG2-kappa (V3/K) (from UniProt P58335 34-218; P58335 34-232) (Fc fusion)”, the molar ratio of antitoxin to PA at the IC50, assay Jul. 27, 2005 (molar ratio antitoxin:PA) was 0.18. On to “CMG2-IgG variant 1 (V1) (from UniProt P58335 34-218) (Fc fusion)”, for which the molar ratio of antitoxin to PA at the IC50, assay Jul. 28, 2005 (molar ratio antitoxin:PA) amounted to 1.8.

“CMG2-IgG variant 2a (V2a) (from UniProt P58335 34-232) (Fc fusion)”: the molar ratio of antitoxin to PA at the IC50, assay Jul. 28, 2005 (molar ratio antitoxin:PA) is 0.72.

For the substance “CMG2-IgG variant 2b (V2b) (from UniProt P58335 34-218) (Fc fusion)”, the molar ratio of antitoxin to PA at the IC50, assay Jul. 20, 2005 (molar ratio antitoxin:PA) is 0.45 and the molar ratio of antitoxin to PA at the IC50, assay Jul. 28, 2005 (molar ratio antitoxin:PA) was 0.31. “CMG2-IgG variant 3 (V3) (from UniProt P58335 34-218) (Fc fusion)”: the molar ratio of antitoxin to PA at the IC50, assay Jul. 28, 2005 (molar ratio antitoxin:PA) amounted to 0.91. In the case of “Original CMG2-IgG (amino acids 34-232 of human CMG2 fused to the human IgG1 constant region) (from UniProt P58335 34-232) (Fc fusion)”, the molar ratio of antitoxin to PA at the IC50, assay Jul. 20, 2005 (molar ratio antitoxin:PA) amounted to 2.16 and the molar ratio of antitoxin to PA at the IC50, assay Jul. 28, 2005 (molar ratio antitoxin:PA) turned out to be 2.
